RC index of single-base changes in HIV-1 integrase

From the data files of Al-Mawsawi et al. 2014, doi:10.1186/s12977-014-0124-6.

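Seven fragments of pNL4-3 were mutated by error-prone PCR, and each virus pool was passaged in CEM T cells. The RC index is the frequency of a change after passage round 2 divided by its frequency in the plasmid library.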

Protein: integrase of HIV-1 NL4-3, numbered from its first residue. The source prints no sequence; the chain below is taken from UniProt P12497, a closely related isolate, and fits the source at the 252 positions it covers.
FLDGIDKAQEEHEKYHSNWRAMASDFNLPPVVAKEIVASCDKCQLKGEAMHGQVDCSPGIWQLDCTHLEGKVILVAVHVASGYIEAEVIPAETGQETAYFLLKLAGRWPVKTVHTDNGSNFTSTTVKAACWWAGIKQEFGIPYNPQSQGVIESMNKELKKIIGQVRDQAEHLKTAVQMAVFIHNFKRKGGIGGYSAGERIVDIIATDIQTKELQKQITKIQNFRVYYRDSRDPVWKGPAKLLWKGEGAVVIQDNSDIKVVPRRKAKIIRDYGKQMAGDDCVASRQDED
Effects on overlapping genes or RNA elements are not listed.

A higher RC index is a better tolerated change; approximate classes are lethal up to 0.1, attenuated to 0.2, tolerated above.
Substitutions are written as wild-type residue, site number, new residue.
Input reads are the counts in the plasmid library.
Base changes are numbered along pNL4-3.

- F121L (base C4592A, input reads 138): 0.258
- K136N (base G4637C, input reads 41): 0.386
- R107G (base A4548G, input reads 285): 0.0625
- I162T (base T4714C, input reads 225): 0.0317
- P238A (base C4941G, input reads 114): 0.0591
- Q146H (base A4667T, input reads 413): 0.0519
- E10G (base A4258G, input reads 248): 0.109
- K258T (base A5002C, input reads 238): 0.0283
- G245S (base G4962A, input reads 282): 0.183
- F185L (base T4782C, input reads 545): 0.0592
- K211I (base A4861T, input reads 433): 0.0458
- S39N (base G4345A, input reads 696): 0.155
- Q209P (base A4855C, input reads 119): 0.0908
- T115A (base A4572G, input reads 212): 0.103
- K215I (base A4873T, input reads 267): 0.0270
- K136R (base A4636G, input reads 560): 0.0353
- T125K (base C4603A, input reads 63): 0.126
- K160E (base A4707G, input reads 207): 0.0863
- D207G (base A4849G, input reads 264): 0.0682
- R199S (base A4826T, input reads 150): 0.0240
- A205P (base G4842C, input reads 86): 0.0419
- M22K (base T4294A, input reads 483): 0.0280
- E152G (base A4684G, input reads 324): 0.0386
- E198G (base A4822G, input reads 286): 0.101
- D6G (base A4246G, input reads 253): 0.0624
- N254I (base A4990T, input reads 356): 0.0441
- T124N (base C4600A, input reads 193): 0.133
- V165E (base T4723A, input reads 317): 0.0507
- D232E (base T4925A, input reads 579): 0.0218
- D6V (base A4246T, input reads 479): 0.0377
- I267F (base A5028T, input reads 346): 0.0584
- K264R (base A5020G, input reads 152): 0.0591
- Q95H (base A4514C, input reads 192): 0.0309
- T115K (base C4573A, input reads 116): 0.0682
- D202V (base A4834T, input reads 429): 0.0294
- G94E (base G4510A, input reads 252): 0.157
- P30S (base C4317T, input reads 523): 0.0991
- C43Y (base G4357A, input reads 407): 0.0997
- V165A (base T4723C, input reads 227): 0.126
- E10D (base A4259C, input reads 102): 0.0221
- K186T (base A4786C, input reads 146): 0.0246
- Q9H (base A4256C, input reads 68): 0.0663
- L2S (base T4234C, input reads 322): 0.0700
- W235R (base T4932C, input reads 463): 0.0776
- I89F (base A4494T, input reads 292): 0.0547
- K211N (base A4862T, input reads 183): 0.0295

Extract of 5 entries:

substitution	base	input reads	RC index
K215I	A4873T	267	0.0270
K136R	A4636G	560	0.0353
K258T	A5002C	238	0.0283
S39N	G4345A	696	0.155
R107G	A4548G	285	0.0625

Clones carried about five changes per kilobase, which can drag down the index of neutral changes.
The authors read an index above 1 as above wild type (1.9% of all changes in the genome).